# Data from article PMC5680308, “Binding of mycotoxins to proteins involved in neuronal plasticity: a combined in silico/wet investigation” (Scientific Reports, 2017).
# The chains behind the UniProt entries cited, without tags or fusion partners. Residues count along the entry.
# UniProt Q8N0W4, 42-676 limits assumed: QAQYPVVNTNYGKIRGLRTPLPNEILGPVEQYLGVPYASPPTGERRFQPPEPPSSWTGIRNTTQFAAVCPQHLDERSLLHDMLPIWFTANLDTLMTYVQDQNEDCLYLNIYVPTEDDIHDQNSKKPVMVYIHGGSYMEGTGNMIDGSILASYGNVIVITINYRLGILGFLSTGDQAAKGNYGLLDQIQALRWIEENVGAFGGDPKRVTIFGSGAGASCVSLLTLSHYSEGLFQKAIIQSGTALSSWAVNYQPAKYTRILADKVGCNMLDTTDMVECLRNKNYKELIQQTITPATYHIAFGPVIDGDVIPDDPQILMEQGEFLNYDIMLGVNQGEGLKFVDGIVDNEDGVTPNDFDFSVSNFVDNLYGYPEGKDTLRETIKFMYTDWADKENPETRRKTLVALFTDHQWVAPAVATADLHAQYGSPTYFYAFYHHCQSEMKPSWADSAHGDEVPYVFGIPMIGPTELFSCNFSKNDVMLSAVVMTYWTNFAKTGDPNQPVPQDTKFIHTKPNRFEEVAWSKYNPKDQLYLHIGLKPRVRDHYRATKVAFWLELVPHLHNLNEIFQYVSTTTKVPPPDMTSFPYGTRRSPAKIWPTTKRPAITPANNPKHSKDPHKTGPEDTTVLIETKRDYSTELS
# Target: Human recombinant neuroligin 4-X linked (NLGN4X) (Homo sapiens, UniProt Q8N0W4)
# Test: Fluorescence steady-state binding experiments (intrinsic Trp fluorescence)
# Conditions: read-out: dissociation constant (kD); Trp fluorescence emission variation, PBS buffer pH 7.4, 25 °C, non-linear regression
compound,measurement,value
"CC1=C[C@H]2O[C@@H]3[C@H](O)C[C@](C)([C@@]2(CO)[C@H](O)C1=O)[C@]31CO1 [Deoxynivalenol, deoxynivalenol]",Kd,665 nM
